Values of other authors as cited in patent US20230210890A1, “COMPOSITIONS AND METHODS OF TREATING COVID-19 WITH HEPARIN OR OTHER NEGATIVELY CHARGED MOLECULES” (Siemens Healthcare Diagnostics Inc., priority 2020, published 2023).

System: hospitalized patients with Covid-19
Details: WHO Solidarity Trial; cited from earlier work

B1: interferon beta-1a (protein, UniProt P01574 22-187, looked up)
Interferon beta: MSYNLLGFLQRSSNFQCQKLLWQLNGRLEYCLKDRMNFDIPEEIKQLQQFQKEDAALTIYEMLQNIFAIFRQDSSSTGWNETIVENLLANVYHQINHLKTVLEEKLEKEDFTRGKLMSSLHLKRYYGRILHYLKAKEYSHCAWTIVRVEILRNFYFINRLTGYLRN
notes: repurposed anti-viral drug
Question: For B1, which “effect on hospitalized patients with Covid-19” value is on record?
Answer: little or no effect
